Pooled drug test results. Numbers come from NIAID ChemDB, via PubChem.

Common to all: cytotoxicity tests; endpoint: CC50

Blank or dashed fields: not listed here.

| compound | method | cells | value |
|---|---|---|---|
| CCN(CC)C(=O)OCC1CN(C(=S)c2cc(OC)c(OC)c(OC)c2)CCN1C(=S)c1cc(OC)c(OC)c(OC)c1 | neutral red | MDM | ≥100 µM |
| CC1(C)CC(NC(=O)C(=O)Nc2ccc(Cl)cc2)CC(C)(C)N1 | WST | PM1 | 62 µM |
| CCOC(=O)CCCCCOc1cccc(CN(C(=O)c2ccc(-c3cc(OC)ccc3F)cc2)C(C)C)c1 |  | RAJI | >20 µM |
| O=c1ccn(-c2ccc(F)cc2)c2cc(-n3ccnc3)c(F)cc12 | luminescence | HPB-ALL | 205.4 µM |
| Cc1cc(C2CC2)n2nc(S(=O)(=O)Nc3c(Br)cccc3Br)nc2n1 | WST | HEPG2 (HB-8065) | >128 µg/mL |
| CCN(CC)C(=O)OCC1CNCCN1C(=O)c1cc(OC)c(OC)c(OC)c1 | neutral red | MDM | >100 µM |
| COc1ccc(Cc2cc(C3CCN(C(=O)c4ccc5c(c4)OCO5)CC3)on2)cc1 |  | Jurkat cells (PMA-stimulated) | >5 µM |
| CCOC(=O)CCCCCOc1cccc(CN(C(=O)c2ccc(-c3cccc([N+](=O)[O-])c3)cc2)C(C)C)c1 |  | BJ | >20 µM |
| CC1=C[C@H]2[C@@]3(O)[C@H](C)[C@@H](OC(=O)CCCCCCCCCCBr)[C@]4(OC(=O)CCCCCCCCCCBr)[C@H]([C@@H]3C=C(CO)C[C@]2(O)C1=O)C4(C)C | MTT | C8166 | >200 µM |
| CC(=O)NC(CCSC[C@H]1O[C@@H](n2ccc3c(N)ncnc32)[C@H](O)[C@@H]1O)C(=O)OC(C)C |  | PRK/E6SM | >400 µg/mL |
| CC(C)Oc1ccccc1NC(=O)NCCc1ccc2c(n1)NCCC2 |  | PBMC | 5.7 µM |
| O=c1ccn(-c2ccc(F)cc2)c2cc(-c3ccccn3)ccc12 | luminescence | HPB-ALL | >100 µM |
| CC1(C)CCC[C@]2(C)[C@H]3C[C@@H](C4=CCOC4=O)CC3=CC[C@@H]12 | absorbance | HT-29 | 42 µM |
| CC(O)Cc1ccc2cccc(O)c2n1 | MTT | CEM-4fx | 4.5 µM |
| Fc1ccc(-c2nn3c(N4CCCC4)cccc3c2-c2ccnc(NC3CCCC3)n2)cc1 |  | VERO 76 | >40 µM |
| NC(N)=NCCCCC(=O)NCCN1CCC(NC(=O)C(=O)Nc2ccc(Cl)cc2)CC12CCCCC2 | WST | PM1 | 225 µM |
| Cc1cc(C2CC2)n2nc(S(=O)(=O)Nc3c(C)csc3S(C)=O)nc2n1 | WST | K562 (CRL-1573) | >128 µg/mL |
| O=C(NCCc1ccc2c(n1)NCCC2)NCc1ccc(Cl)cc1Cl |  | PBMC | 4.24 µM |
| Nc1nc2c(ncn2COCCO)c(=O)[nH]1 |  | HET | 1360 µM |
| CC(C)C[C@@H]1NC(=O)[C@H](Cc2c[nH]c3ccccc23)NC(=O)[C@@H](CC2CCCCC2)NC(=O)[C@H](CCCCN)NC(=O)[C@H](C(C)C)NC(=O)[C@@H](CC(C)C)NC1=O | MTT | Colorectal carcinoma | >30 µM |
| CCN(CC)C(=O)OCC1CN(Cc2ccccc2)CCN1Cc1ccccc1 | neutral red | MDM | ≥100 µM |
| Nc1nc(Cc2ccc(O)cc2)cc(C2CCN(C(=O)c3ccc4c(c3)OCO4)CC2)n1 |  | Jurkat cells (PMA-stimulated) | >5 µM |
| CCCOC(=O)C(CCSC[C@H]1O[C@@H](n2ccc3c(N)ncnc32)[C@H](O)[C@@H]1O)NC(C)=O |  | PRK/E6SM | 400 µg/mL |
| O=c1ccn(-c2ccc(F)cc2)c2cc(-n3cccc3)ccc12 | luminescence | HPB-ALL | 37.5 µM |
| C#CCCC(=O)CCCc1ccc(OC)c(OC)c1 |  | RAJI | <7.5 µM |
| Cc1ccc(OC(=O)NCC2CCc3ccccc3N2)cc1 |  | PBMC | 50 µM |
| CCCCNc1cccc2c(-c3ccnc(NCCN4CCOCC4)n3)c(-c3ccc(F)cc3)nn12 |  | VERO 76 | >5 µM |
| CCOC(=O)CCCCCOc1cccc(CN(C(=O)c2ccc(-c3cc(C(F)(F)F)cc(C(F)(F)F)c3)cc2)C(C)C)c1 |  | HepG2 | >20 µM |
| Cc1cc(=O)[nH]c2c1ccc1ncc(C(=O)O[C@@H]3CC4CCC3(C)C4(C)C)c(C)c12 |  | CAKI-1 | 4.3 µg/mL |
| CCCCCCCCCCc1cc2cn(Cc3ccc(C)cc3)c(=O)nc2o1 |  | HEL | >200 µM |
| COc1ccc(C[C@H](N)C(=O)N[C@H]2[C@@H](O)[C@H](n3cnc4c(N(C)C)ncnc43)O[C@@H]2CO)cc1 | WST | HEPG2 (HB-8065) | 0.34 µg/mL |
| CCCCCCCc1cc2cnc(OC3CCCC3)nc2o1 |  | HEL | 132 µM |
| COc1cccc(CNC(=O)NCCc2ccc3c(n2)NCCC3)c1 |  | PBMC | 50 µM |
| CC(C)c1ccc2ccccc2n1 | MTT | CEM-4fx | 5.9 µM |
| CCCCNc1nccc(-c2c(-c3ccc(F)cc3)nn3c(NCCCC)cccc23)n1 |  | VERO 76 | >160 µM |
| O=Cc1coc2ccc(Br)cc2c1=O | MTT | HTLV-I-bearing MT-4 | 28.1 µg/mL |
| CC(C)[C@@H]1NC(=O)[C@@H](C(C)C)OC(=O)[C@H](C(C)C)N(C)C(=O)[C@@H](C(C)C)OC(=O)[C@H](C(C)C)N(C)C(=O)[C@@H](C(C)C)OC1=O | absorbance | BC-cells | 6.36 µM |
| O=Cc1coc2ccc(Cl)cc2c1=O | MTT | HTLV-I-bearing MT-4 | 17.9 µg/mL |
| Fc1ccc(-c2nn3c(NN4CCOCC4)cccc3c2-c2ccnc(NC3CCCC3)n2)cc1 |  | VERO 76 | >40 µM |
| O=C(Cc1ccc(Cl)cc1)NCCc1ccc2c(n1)NCCC2 |  | PBMC | 50 µM |
| BrC(Br)=Cc1ccc2ccccc2n1 | MTT | CEM-4fx | 5.3 µM |
| NC(N)=NCCN1CCC(NC(=O)C(=O)Nc2ccc(Cl)cc2)CC12CCCCC2 | WST | PM1 | 50 µM |
| Fc1ccc(Nc2cccc3c(-c4ccnc(NC5CCCC5)n4)c(-c4ccc(F)cc4)nn23)cc1 |  | VERO 76 | >40 µM |
| N#CCN1CCC(NC(=O)C(=O)Nc2ccc(Cl)cc2)CC12CCCCC2 | WST | PM1 | 47 µM |
| CCOC(=O)C(N)CCSC[C@H]1O[C@@H](n2ccc3c(N)ncnc32)[C@H](O)[C@@H]1O |  | PRK/E6SM | 400 µg/mL |
| C(#Cc1cnc2ccccc2c1)CCC#Cc1cnc2ccccc2c1 | MTT | CEM-4fx | 168 µM |
| Nc1nccc2c1ncn2[C@@H]1O[C@H](CO)C[C@H]1O |  | PRK/E6SM | 200 µg/mL |
| COc1ccc2nc3n[nH]c(C)c3c(SCc3ccco3)c2c1 |  | WI-38 | >100 µg/mL |
| COc1cc(OC)c(NC(=O)NCCc2ccc3c(n2)NCCC3)cc1Cl |  | PBMC | 1.2 µM |
| CC(C)C[C@@H]1NC(=O)[C@H](Cc2c[nH]c3ccccc23)NC(=O)[C@@H](CCCNC(N)=O)NC(=O)[C@H](CC(N)=O)NC(=O)[C@H](C(C)C)NC(=O)[C@@H](CC(C)C)NC1=O | MTT | Lung carcinoma cells | >30 µM |
| Fc1ccc(NC(=S)NCCc2ccc3c(n2)NCCC3)cc1C(F)(F)F |  | PBMC | 6.87 µM |
| Nc1nccc2c1ncn2[C@@H]1O[C@H](CSCCC(N)C(=O)O)C[C@H]1O |  | PRK/E6SM | 400 µg/mL |
| O=C(Nc1ccc(Cl)cc1)C(=O)NC1CC2(CCCCC2)NC2(CCCCC2)C1 | WST | PM1 | 120 µM |
| COc1ccc(Cc2cc(C3CCN(C(=O)c4ccc5nsnc5c4)CC3)nc(N)n2)cc1 |  | Jurkat cells (PMA-stimulated) | >5 µM |
| CC(C)C[C@@H]1NC(=O)[C@H](Cc2c[nH]c3ccccc23)NC(=O)CNC(=O)[C@H](CC(N)=O)NC(=O)[C@H](C(C)C)NC(=O)[C@H](CC(C)C)NC1=O | MTT | Colorectal carcinoma | >30 µM |
| O=Cc1coc2ccc([N+](=O)[O-])cc2c1=O | MTT | HTLV-I-bearing MT-4 | 35.4 µg/mL |
| Nc1nc(CCc2ccccc2)cc(C2CCN(C(=O)c3ccc4c(c3)OCO4)CC2)n1 |  | Jurkat cells (PMA-stimulated) | 2.1 µM |
| NCCN(CCN)CCN1CCC(NC(=O)C(=O)Nc2ccc(Cl)cc2)CC12CCCCC2 | WST | PM1 | 41 µM |
| Cc1noc(C)c1-c1ccc2c(c1)N(c1cc(N)c(F)cc1F)CCC2=O | luminescence | HPB-ALL | 26.2 µM |
| COC(=O)CCCC1=NCCc2cc(OC)c(OC)cc21 |  | HepG2 | <7.5 µM |
| CC(=O)O[C@@]12[C@H](OC(=O)/C=C/c3ccc(Cl)cc3)[C@@H](C)[C@@]3(O)[C@@H](C=C(CO)C[C@]4(O)C(=O)C(C)=C[C@@H]34)[C@@H]1C2(C)C | MTT | C8166 | 23.17 µM |
| N#Cc1coc2ccccc2c1=O | MTT | HTLV-I-bearing MT-4 | 121.9 µg/mL |
| Nc1ccn([C@H]2CC[C@@H](CO)O2)c(=O)n1 |  | RAJI | 12 µM |
| CCN(CC)CCCC(C)Nc1ccnc2cc(Cl)ccc12 |  | RFII/H9 | >300 µM |
| CC(C)(C)C(=O)OCn1nc([C@@H]2O[C@H](CO)[C@@H](O)[C@H]2O)c2ncnc(N)c21 |  | PRK/E6SM | 40 µg/mL |
| Cc1nnc(-c2cccc(-c3ccc(C(=O)N(Cc4cccc(OCCCCCC(=O)OC(=O)O)c4)C(C)C)cc3)c2)o1 |  | BJ | >20 µM |
| NCCCCC(=O)NCCN1CCC(NC(=O)C(=O)Nc2ccc(Cl)cc2)CC12CCCCC2 | WST | PM1 | 142 µM |
| OC/C=C/c1ccc2ccccc2n1 | MTT | CEM-4fx | 1.7 µM |
| CO[C@@H]1[C@H](N(C)C(=O)c2ccccc2)C[C@@]2(C)O[C@]1(C)n1c3ccccc3c3c4c(c5c6ccccc6n2c5c31)C(=O)NC4 | fluorescence | J-Lat 9.2 | >5 µM |
| Cc1cc(C2CCN(C(=O)c3ccc4c(c3)OCO4)CC2)nc(N)n1 |  | Jurkat cells (PMA-stimulated) | >5 µM |
| CCCCCCCCCCCCCCCCCCCC(=O)O[C@@H]1[C@@H](C)[C@@]2(O)[C@@H](C=C(CO)C[C@]3(O)C(=O)C(C)=C[C@@H]23)[C@@H]2C(C)(C)[C@]12OC(=O)CCCCCCCCCCCCCCCCCCC | MTT | C8166 | >200 µM |
| CCCCCCCCCCc1cc2cnc(OCc3ccccc3)nc2o1 |  | HEL | >200 µM |
| O=c1ccn(-c2ccc(F)cc2)c2ccccc12 | luminescence | HPB-ALL | 36.7 µM |
| O=Cc1coc2c(Cl)cc(Cl)cc2c1=O | MTT | HTLV-I-bearing MT-4 | 87.8 µg/mL |
| CCN(CC)C(=O)OCC1CN(C(=O)c2ccncc2)CCN1C(=O)c1ccncc1 | neutral red | MDM | >100 µM |
| Cc1ccc2occ(C=O)c(=O)c2c1 | MTT | HTLV-I-bearing MT-4 | 39.8 µg/mL |
| CC(C)(C)C(=O)OCn1nc([C@@H]2O[C@H](CO)C[C@H]2O)c2ncnc(N)c21 |  | PRK/E6SM | 200 µg/mL |
| Fc1ccc(-c2nn3c(NC4CCCC4)cccc3c2-c2ccnc(NC3CCCC3)n2)cc1 |  | VERO 76 | >160 µM |
| N=C1Sc2ccccc2C2=NCCCN12 | LDH | Macrophage | >300 µM |
| CCOC(=O)CCCCCOc1cccc(CN(C(=O)c2ccc(-c3ccc4[nH]ccc4c3)cc2)C(C)C)c1 |  | HEK 293 | >20 µM |
| O=C(NCCc1ccc2c(n1)NCCC2)Nc1c(F)ccc2c1OCOC2 |  | PBMC | 50 µM |
| CCCCCCCCC(=O)O[C@@]12[C@H](OC(=O)/C=C/c3ccc4c(c3)OCO4)[C@@H](C)[C@@]3(O)[C@@H](C=C(CO)C[C@]4(O)C(=O)C(C)=C[C@@H]34)[C@@H]1C2(C)C | MTT | C8166 | 37.7 µM |
| O=Cc1coc2ccccc2c1=O | MTT | HTLV-I-bearing MT-4 | 30.8 µg/mL |
| CCN(CC)C(=O)OCC1CN(C(=O)c2cc(OC)c(O)c(OC)c2)CCN1C(=O)c1cc(OC)c(O)c(OC)c1 | neutral red | MDM | >100 µM |
| N#Cc1cccc(S(=O)(=O)N(Cc2c(Cl)cccc2Cl)c2cccc(C(=O)NC3CCC3)c2)c1 | absorbance | NHDF | 29 µM |
| CC(C)C[C@@H]1NC(=O)[C@H](Cc2c[nH]c3ccccc23)NC(=O)[C@@H](CCCCN)NC(=O)[C@H](CC(N)=O)NC(=O)[C@H](C(C)C)NC(=O)[C@@H](CC(C)C)NC1=O | MTT | Colorectal carcinoma | >30 µM |
| COc1ccc2occ(C=O)c(=O)c2c1 | MTT | HTLV-I-bearing MT-4 | 96.7 µg/mL |

6 of the rows above, restated:

compound	method	cells	value
OC/C=C/c1ccc2ccccc2n1	MTT	CEM-4fx	1.7 µM
NCCCCC(=O)NCCN1CCC(NC(=O)C(=O)Nc2ccc(Cl)cc2)CC12CCCCC2	WST	PM1	142 µM
CC1(C)CC(NC(=O)C(=O)Nc2ccc(Cl)cc2)CC(C)(C)N1	WST	PM1	62 µM
CCN(CC)C(=O)OCC1CN(C(=O)c2ccncc2)CCN1C(=O)c1ccncc1	neutral red	MDM	>100 µM
N#Cc1coc2ccccc2c1=O	MTT	HTLV-I-bearing MT-4	121.9 µg/mL
O=c1ccn(-c2ccc(F)cc2)c2cc(-n3cccc3)ccc12	luminescence	HPB-ALL	37.5 µM

CCn: concentration that lowers growth or viability of the cells by n%. Lines come from different laboratories, so protocols vary.